Key:
[1] = system: G. duodenalis trophozoites; assay: Anti-Giardia activity assay (MTT viability); format: cell-based, Giardia duodenalis; details: Selectivity index (CC50 Vero/IC50)
Protocol: Anti-Giardia (AG) activity assays were conducted on G. duodenalis trophozoites from the ATCC® 30957 strain (assemblage A), using flat-bottom microwell plates in quadruplicate. […] Incubation was carried out for 24 h at 37 °C. EOs and pure compounds were solved in DMSO (Sigma, Madrid, Spain) (<1% final concentration). […] Trophozoites/promastigotes viability was assessed using the modified MTT colorimetric assay, as described previously in the literature, with results further validated by microscopic examination. The plate was analyzed in a spectrophotometer at a wavelength of 570 nm. The percentage of antiparasitic activity was calculated as growth inhibition, using the following formula: % AT = 100 - [(Ap - Ab) ÷ (Ac - Ab)] × 100, where Ap is the absorbance of the tested product, Ab the absorbance of the blank and Ac the absorbance of the control wells (culture without treatment). […] Metronidazole (Acros Organics, Madrid, Spain) served as a reference compound for anti-Giardia activity and Anti-Trichomonas activity and amphotericin B for anti-Leishmania activity. Data was analyzed using STATGRAPHICS Centurion XIX ([…].com) (Statgraphics Technologies, Inc., The Plains, VA, USA). The mammalian cells and trophozoites viability were tested with each compound in a dose-response experiment to calculate their relative potency (CC50 or IC50 value, respectively).

T. gallinae trophozoites = assay: Anti-Trichomonas activity assay (MTT viability); format: cell-based, Trichomonas gallinae; details: Selectivity index (CC50 Vero/IC50)
Protocol: The anti-Trichomonas (AT) activity assay utilized T. gallinae trophozoites from an isolate obtained from a wood pigeon by Dr. […] EOs and pure compounds were solved in DMSO (Sigma, Madrid, Spain) (<1% final concentration). […] Trophozoites/promastigotes viability was assessed using the modified MTT colorimetric assay, as described previously in the literature, with results further validated by microscopic examination. The plate was analyzed in a spectrophotometer at a wavelength of 570 nm. The percentage of antiparasitic activity was calculated as growth inhibition, using the following formula: % AT = 100 - [(Ap - Ab) ÷ (Ac - Ab)] × 100, where Ap is the absorbance of the tested product, Ab the absorbance of the blank and Ac the absorbance of the control wells (culture without treatment). […] Metronidazole (Acros Organics, Madrid, Spain) served as a reference compound for anti-Giardia activity and Anti-Trichomonas activity and amphotericin B for anti-Leishmania activity. Data was analyzed using STATGRAPHICS Centurion XIX ([…].com) (Statgraphics Technologies, Inc., The Plains, VA, USA). The mammalian cells and trophozoites viability were tested with each compound in a dose-response experiment to calculate their relative potency (CC50 or IC50 value, respectively).

SMILES | G. duodenalis SI [1] | T. gallinae SI (T. gallinae trophozoites)
C/C1=C\CC2(OC2(C)C)C(=O)C/C(C)=C/CC1 (stereo not drawn) [Compound 4] | 1 | 1.9
Cc1ncc([N+](=O)[O-])n1CCO [Met, metronidazole, reference compound] | 22.7 | 100
CC(C)=C1CC(=O)[C@]2(C)CC[C@H]2[C@@H](C)CC1=O [Compound 3] | 1 | 1.0
C=C[C@]1(C)CC(=O)C(=C(C)C)C[C@H]1C(=C)C [Compound 1, β-elemenone] | 1 | –
CC(C)=C1C/C=C(\C)CC/C=C(\C)CC1=O [Compound 2, germacrone] | 1.8 | 2.2

From PMC12841663, “Antiprotozoal Potential of Cultivated Geranium macrorrhizum Against Giardia duodenalis, Trichomonas gallinae and Leishmania infantum” (International Journal of Molecular Sciences, 2026)
